Measured values from several laboratories, pooled; numbers as filed in NIAID ChemDB.

Shared fields: whole-cell or culture tests; species: HIV-1

Neighbouring rows are from separate reports.

smiles,setting,strain,read-out,mutations,method,cells,result
CC(C)(C)NC(=O)[C@@H]1C[C@@H]2CCCC[C@@H]2N1C(=O)[C@@H](O)[C@H](Cc1ccccc1)NC(=O)[C@H](CC(N)=O)NC(=O)COc1ccccc1,,RF,EC50,,p24,MT-2,0.082 µM
Nc1nc2c(ncn2[C@@H]2C[C@H](CO)[C@@H](O)[C@H]2O)c(=O)o1,,IIIB,EC50,,RT activity,H9,>500 µg/mL
Cc1nc(CCCCCOC(=O)c2ccccc2)n2nc(Cl)ccc12,,RF,EC50,,cytopathic effect,MT-4,0.78 µM
O=c1[nH]cnc2c1ncn2[C@H]1CC[C@@H](CO)O1,,IIIB,EC50,,RT activity,CEM,2.6 µg/mL
NS(=O)(=O)c1cc2c(cc1Cl)NC(C(Cl)Cl)NS2(=O)=O,,LAV,EC50,,,MT-4,>100 µg/mL
Cc1nc(CCCCCC(=O)c2ccccc2)n2nc(Cl)ccc12,,RF,EC50,,cytopathic effect,MT-4,>250 µM
CCOC(=O)NC1=C2C(CC[C@@H]3C[C@H](OC(=O)c4ccccc4)CC[C@]23C)C2CC[C@H](C(C)CCC(=O)OC)[C@@]2(C)C1=O,,IIIB,EC50,,,C8166,20 µM
CC(C)(C)NC(=O)[C@@H]1CN(Cc2cccnc2)CCN1C[C@@H](O)C[C@@H](Cc1ccccc1)C(=O)N[C@H]1c2ccccc2C[C@H]1OC(=O)CCCCO[C@@H]1[C@@H](O)[C@@H](O)O[C@H](CO)[C@H]1O,,LAI,EC50,,RT activity,CEM + CEM-SS,0.048 µM
C=C(C)OC(=O)N1c2cc(Cl)ccc2NC(=S)C1(C)C,,I420 AZT-resistant (RT M41L D67N K70R T215Y),EC50,RT-M41L D67N K70R T215Y,p24,PBL,0.003 µM
CC(C)(C)NC(=O)[C@@H]1C[C@@H]2CCC[C@@H]2N1C(=O)[C@@H](O)[C@H](Cc1ccccc1)NC(=O)[C@H](CC(N)=O)NC(=O)OCc1ccccc1,,RF,EC90,,p24,MT-2,0.151 µM
Nc1nc2c(ncn2[C@H]2C=C[C@@H](CO)C2)c(=O)o1,chronic infection,IIIB,EC50,,RT activity,U-937/HIV-1(IIIB) + U-937,41 µg/mL
CCc1cc(NCc2nc3c(Cl)ccc(Cl)c3o2)c(=O)[nH]c1C,,MN,EC50,,p24,H9,0.067 µM
Cc1ncc(CSSCc2cnc(C)c(O)c2CO)c(CO)c1O,,LAV,EC50,,,MT-4,>100 µg/mL
Cc1c(OC(=O)CCCCOc2ccc(C[C@H](N)C(=O)O)cc2)cccc1C(=O)N[C@@H](CSc1ccccc1)[C@H](O)CN1C[C@H]2CCCC[C@H]2C[C@H]1C(=O)NC(C)(C)C,,IIIB,EC50,,cytopathic effect / MTT,MT-4,0.193 µM
CCc1c(C(=O)c2cc(C)cc(C)c2)n(CC2CC=CC2)c(=O)[nH]c1=O,,NL4-3,EC50,RT-A98G,cytopathic effect / XTT,CEM + CEM-SS,0.0006 µM
Cc1nc(CCCCCCC(=O)c2ccccc2)n2nc(-n3cccc3)ccc12,,RF,EC50,,cytopathic effect,MT-4,0.02 µM
COC(=O)CCC(C)[C@H]1CCC2C3CC[C@@H]4C[C@H](OC(=O)c5ccccc5)CC[C@]4(C)C3=C(N)C(=O)[C@@]21C,,IIIB,EC50,,,C8166,20 µM
CC1CNCCN1S(=O)(=O)c1cccc2cnccc12,,,EC50,,p24 / ELISA,MOLT-4/HIV-1 + MOLT-4,60 µM
Cc1cn([C@H]2C[C@H](N=[N+]=[N-])[C@@H](CO)O2)c(=O)[nH]c1=O,,VB51,EC50,,luciferase,TZM-bl,0.03 µM
COC(=O)[C@@H](NC(=O)Cc1ccccc1)[C@@H]1N[C@@H](C(=O)NCCNC(=O)[C@@H]2N[C@@H]([C@H](NC(=O)Cc3ccccc3)C(=O)OC)SC2(C)C)C(C)(C)S1,,IIIB,EC50,,cytopathic effect / MTT,MT-4,>100 µg/mL
Cc1c(OC(=O)CCCCO[C@H]2O[C@H](CO)[C@@H](O)[C@H](O)[C@@H]2O)cccc1C(=O)N[C@@H](CSc1ccccc1)[C@@H](CN1C[C@H]2CCCC[C@H]2C[C@H]1C(=O)NC(C)(C)C)OC(=O)CCCCO[C@H]1O[C@H](CO)[C@@H](O)[C@H](O)[C@@H]1O,,IIIB,EC50,,cytopathic effect / MTT,MT-4,>>50 µM
Cc1cn(-c2ccc3c(C)nc(CCCCCCC(=O)c4ccccc4)n3n2)cn1,,RF,EC50,,p24,C8166,0.16 µM
CC(C)(C)NC(=O)[C@@H]1CCCN1C(=O)[C@@H](O)[C@H](Cc1ccccc1)NC(=O)[C@H](CC(N)=O)NC(=O)COc1cccc2ccccc12,,RF,EC50,,p24,MT-2,0.09–0.103 µM
Cc1nc(CCCCCCC(=O)c2ccccc2)n2nc(-n3cncc3C)ccc12,,RF,EC50,,p24,C8166,0.03 µM
CC(C)(C)NC(=O)[C@@H]1CN(Cc2cccnc2)CCN1C[C@@H](O)C[C@@H](Cc1ccccc1)C(=O)N[C@H]1c2ccccc2C[C@H]1O,,LAI,EC50,,RT activity,CEM + CEM-SS,≤0.01 µM
CC(C)(C)NC(=O)[C@@H]1[C@H]2CCCC[C@H]2CN1C(=O)[C@@H](O)[C@H](Cc1ccccc1)NC(=O)[C@H](CC(N)=O)NC(=O)COc1cccc2ccccc12,,RF,EC50,,p24,MT-2,0.018 µM
Nc1nc2c(ncn2[C@@H]2O[C@H](COP(=O)(O)O)[C@@H](O)[C@H]2O)c(=O)o1,,IIIB,EC50,,RT activity,CEM,4.1 µg/mL
CCNCC(O)c1cccc(O)c1,,LAV,EC50,,,MT-4,>100 µg/mL
Cc1nc(CCCCCCCC(=O)c2ccccc2)n2nc(Cl)ccc12,,RF,EC50,,cytopathic effect,MT-4,25 µM
NC12CC3CC(CC(C3)C1)C2,,LAV,EC50,,,MT-4,<10 µg/mL
COC(=O)CCC(C)[C@H]1CCC2C3CC[C@@H]4C[C@H](OC(=O)c5ccccc5)CC[C@]4(C)C3=C(NC(=O)OCc3ccccc3)C(=O)[C@@]21C,,IIIB,EC50,,,C8166,8 µM
Nc1nc2c(ncn2[C@@H]2O[C@H](CO)[C@@H](O)[C@H]2O)c(=O)o1,chronic infection,IIIB,EC50,,RT activity,U-937/HIV-1(IIIB) + U-937,27 µg/mL

For reference, 5 entries again:

smiles | setting | strain | read-out | mutations | method | cells | result
CCNCC(O)c1cccc(O)c1 |  | LAV | EC50 |  |  | MT-4 | >100 µg/mL
COC(=O)CCC(C)[C@H]1CCC2C3CC[C@@H]4C[C@H](OC(=O)c5ccccc5)CC[C@]4(C)C3=C(N)C(=O)[C@@]21C |  | IIIB | EC50 |  |  | C8166 | 20 µM
C=C(C)OC(=O)N1c2cc(Cl)ccc2NC(=S)C1(C)C |  | I420 AZT-resistant (RT M41L D67N K70R T215Y) | EC50 | RT-M41L D67N K70R T215Y | p24 | PBL | 0.003 µM
Cc1c(OC(=O)CCCCOc2ccc(C[C@H](N)C(=O)O)cc2)cccc1C(=O)N[C@@H](CSc1ccccc1)[C@H](O)CN1C[C@H]2CCCC[C@H]2C[C@H]1C(=O)NC(C)(C)C |  | IIIB | EC50 |  | cytopathic effect / MTT | MT-4 | 0.193 µM
Cc1nc(CCCCCOC(=O)c2ccccc2)n2nc(Cl)ccc12 |  | RF | EC50 |  | cytopathic effect | MT-4 | 0.78 µM

ECn: concentration that inhibits the pathogen or its effect by n%. An empty or dashed field is not shown. a–b is a range or a potency band.